Pooled drug test results. Numbers come from NIAID ChemDB, via PubChem.

All rows: tests on isolated targets; agent: HIV-1; target: Reverse transcriptase; read-out: IC50

Rows are shuffled and stem from different studies. Blank or dashed fields: not listed here. Two numbers with a dash give a range or band. ICn: concentration for n% inhibition.

COc1cccc(CC(=O)Nc2ccc(NC(=O)CSc3nnnn3-c3ccc(C(C)(C)C)cc3Cl)c(Cl)c2)c1 ; mutations: RT-K103 Y181C ; method: PicoGreen / fluorescence ; value: <1 µM
CCc1ccc(-n2c(Br)nnc2SCC(=O)Nc2ccc(C(=O)O)cc2Cl)c2ccccc12 ; mutations: RT-Y188L ; method: nucleotide incorporation / radiometric ; value: >0.1 µM
N#Cc1ccc2c(c1)CN(c1nn3c(C4CC4)nnc3c3ccccc13)CC2 ; strain: 98US_MSC5016 ; method: RT activity / fluorescence ; value: 1.96 µM
CCN1c2ncc(CCOc3ccc(-c4ccnc(C)c4)cc3C)cc2C(=O)N(C)c2cccnc21 ; strain: IIIB ; mutations: RT-K103N Y181C ; method: nucleotide incorporation / radiometric ; value: <0.05 µM
CC(=O)Nc1ccc2c(c1)CN(c1nn3c(C)nnc3c3ccccc13)CC2 ; strain: IIIB ; method: RT activity / fluorescence ; value: 20.4 µM
CC(C)(C#Cc1ccc(NC(=O)CSc2nnnn2-c2cc(C(F)(F)F)c(C3CC3)cc2Cl)c(Cl)c1)C(=O)O ; strain: WT ; method: PicoGreen / fluorescence ; value: <1 µM
CCN1c2ncc(CCOc3ccc(C4CC4C(=O)O)c4ccccc34)cc2C(=O)N(C)c2ccc(F)nc21 ; mutations: RT-Y188L ; method: nucleotide incorporation / radiometric ; value: 0.1–1 µM
CCc1cc(CCc2nc3ccccc3o2)c(=O)[nH]c1C ; mutations: RT-Y181H ; method: nucleotide incorporation ; value: 1.24 µM
Nc1ccc2c(c1)CN(c1nn3c(-c4cccs4)nnc3c3ccccc13)CC2 ; strain: KER2008 ; method: RT activity / fluorescence ; value: 2.78 µM
CC(C)(C#Cc1ccc(NC(=O)CSc2nnnn2-c2ccc(C(C)(C)C)cc2Cl)c(Cl)c1)OCC(=O)NC1(C(=O)O)CC1 ; strain: WT ; method: PicoGreen / fluorescence ; value: <1 µM
CCN1c2ncc(CCOc3ccc(S(=O)(=O)NCC(=O)O)c4ccccc34)cc2C(=O)N(C)c2cccnc21 ; strain: WT ; method: nucleotide incorporation / radiometric ; value: <0.1 µM
Cc1ccc(-c2c(SCC(=O)Nc3ccc(-c4ccc(CC(=O)O)cc4)cc3Cl)cnn2C)c(Cl)c1 ; strain: WT ; method: PicoGreen / fluorescence ; value: <1 µM
Fc1ccc2c(c1)CCN(c1nn3c(C4CC4)nnc3c3ccccc13)C2 ; strain: KER2008 ; method: RT activity / fluorescence ; value: 1.5 µM
CCN1c2ncc(CCOc3ccc(CC(C)C(=O)O)c4ccccc34)cc2C(=O)N(C)c2ccc(C)nc21 ; mutations: RT-V106A ; method: nucleotide incorporation / radiometric ; value: >1 µM
Cc1nnc2n1CCN(c1nn3c(C4CC4)nnc3c3ccccc13)C2 ; strain: IIIB ; method: RT activity / fluorescence ; value: >100 µM
CC(C)(C)c1ccc(-n2nnnc2SCC(=O)Nc2ccc(NC(=O)Cc3cccc[n+]3[O-])cc2Cl)c(Cl)c1 ; strain: WT ; method: PicoGreen / fluorescence ; value: <1 µM
CCN1c2ncc(CCOc3ccc(C(=O)Nc4cccn(CC(=O)O)c4=O)cc3C)cc2C(=O)N(C)c2cccnc21 ; strain: IIIB ; mutations: RT-K103N Y181C ; method: nucleotide incorporation / radiometric ; value: 0.05–0.1 µM
O=C(O)Cc1ccc(-c2ccc(NC(=O)CSc3nnnn3-c3ccc4ccccc4c3Cl)c(Cl)c2)cc1 ; strain: WT ; method: PicoGreen / fluorescence ; value: <1 µM
CCN1c2ncc(CCOc3ccc(-c4ccc(C(=O)O)s4)cc3C)cc2C(=O)N(C)c2cccnc21 ; strain: IIIB ; mutations: RT-K103N Y181C ; method: nucleotide incorporation / radiometric ; value: <0.05 µM
CCN1c2ncc(CCOc3ccc(CCC(=O)O)c4ccccc34)cc2C(=O)N(C)c2ccc(Cl)nc21 ; strain: WT ; method: nucleotide incorporation / radiometric ; value: <0.1 µM
CNC(=O)NS(=O)(=O)c1ccc(NC(=O)CSc2nnnn2-c2ccc(C3CC3)cc2Cl)c(Cl)c1 ; strain: WT ; method: PicoGreen / fluorescence ; value: <1 µM
CC(C)c1nnc2c3ccccc3c(N3CCc4ccc(N)cc4C3)nn12 ; strain: KER2008 ; method: RT activity / fluorescence ; value: 0.23 µM
O=C(CSc1nnnn1-c1ccc(C2CC2)cc1Cl)Nc1ccc(C(=O)NCCc2cc[n+]([O-])cc2)cc1Cl ; strain: WT ; method: PicoGreen / fluorescence ; value: <1 µM
CCN1c2ncc(CCOc3ccc(-c4ccncc4)cc3)cc2C(=O)N(C)c2cccnc21 ; strain: IIIB ; mutations: RT-K103N Y181C ; method: nucleotide incorporation / radiometric ; value: 0.05–0.1 µM

2 of the rows above, restated:

| SMILES | strain | mutations | method | value |
|---|---|---|---|---|
| Cc1ccc(-c2c(SCC(=O)Nc3ccc(-c4ccc(CC(=O)O)cc4)cc3Cl)cnn2C)c(Cl)c1 | WT | - | PicoGreen / fluorescence | <1 µM |
| CCN1c2ncc(CCOc3ccc(-c4ccncc4)cc3)cc2C(=O)N(C)c2cccnc21 | IIIB | RT-K103N Y181C | nucleotide incorporation / radiometric | 0.05–0.1 µM |